This is an account of results in ChEMBL document CHEMBL1127929, “The synthesis and serine -lactamase inhibitory activity of some phosphonamidate analogues of dipeptides” (1994).

Amino acid sequences for entries named in this document (tags omitted).
UniProt P62593, whole entry: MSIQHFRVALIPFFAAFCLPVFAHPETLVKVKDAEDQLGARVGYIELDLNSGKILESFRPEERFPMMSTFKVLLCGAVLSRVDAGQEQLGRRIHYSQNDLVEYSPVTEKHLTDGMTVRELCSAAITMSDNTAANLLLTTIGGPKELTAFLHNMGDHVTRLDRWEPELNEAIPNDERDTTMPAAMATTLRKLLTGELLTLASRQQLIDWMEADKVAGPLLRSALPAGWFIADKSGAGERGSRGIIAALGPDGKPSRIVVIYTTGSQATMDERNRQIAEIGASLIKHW

Each structure is given as a SMILES string.

For the experiment, the target named is Beta-lactamase TEM (Escherichia coli) (UniProt P62593).
Compound `CC1(C)S[C@@H]2[C@H](NC(=O)C(N)c3ccc(O)cc3)C(=O)N2[C@H]1C(=O)O.O=C(NCP(=O)(O)NC(C(=O)O)c1ccccc1)OCc1ccccc1` (stereo unspecified) displayed an MIC greater than 256 µg/mL. To `CC1(C)S[C@@H]2[C@H](NC(=O)C(N)c3ccc(O)cc3)C(=O)N2[C@H]1C(=O)O.O=C(NCP(=O)(O)N[C@@H](Cc1ccccc1)C(=O)O)OCc1ccccc1` belongs greater than 256 µg/mL; to `CC1(C)S[C@@H]2[C@H](NC(=O)C(N)c3ccc(O)cc3)C(=O)N2[C@H]1C(=O)O.O=C(O)CNP(=O)(O)CNC(=O)OCc1ccccc1` (stereo partly specified), greater than 256 µg/mL; to `CC1(C)S[C@@H]2[C@H](NC(=O)C(N)c3ccc(O)cc3)C(=O)N2[C@H]1C(=O)O.O=C(O)CCNP(=O)(O)CNC(=O)OCc1ccccc1` (stereo partly specified), greater than 256 µg/mL. The same measure for `CC1(C)S[C@@H]2[C@H](NC(=O)C(N)c3ccc(O)cc3)C(=O)N2[C@H]1C(=O)O.O=C(NCP(=O)(O)N[C@H](Cc1ccccc1)C(=O)O)OCc1ccccc1`: greater than 256 µg/mL; for `CC1(C)S[C@@H]2[C@H](NC(=O)C(N)c3ccc(O)cc3)C(=O)N2[C@H]1C(=O)O.O=C(O)CC(NP(=O)(O)CNC(=O)OCc1ccccc1)c1ccccc1` (stereo unspecified): greater than 256 µg/mL.
